Target: SARS-CoV-2 M^pro protease (Severe acute respiratory syndrome coronavirus 2 (2019-nCoV) (SARS-CoV-2), UniProt P0DTD1)
Settings: Tables 5B-5E; M^pro 75 nM, substrate 10 μM

O=C1NC2(CC(c3ccccc3Cl)C2)C(=O)N1c1cncc2c1CCCC2 (stereo not shown)
IC50: 145 nM
